# From article PMC9571290, “Preliminary Structure–Activity Relationship Study of the MMV Pathogen Box Compound MMV675968 (2,4-Diaminoquinazoline) Unveils Novel Inhibitors of Trypanosoma brucei brucei” (Molecules, 2022)
# Tested on: Vero cells
# Test: cytotoxicity against Vero cells (resazurin viability assay)
# Settings: Table 1; CC50 (Vero cells)/IC50 (T. b. brucei)
# Protocol: The resulting pellet was resuspended and counted in a Neubauer chamber in the presence of trypan blue to exclude nonviable cells colored in blue. Once the cell load was estimated, they were either used for the next passage in a new flask or processed for the cytotoxicity assay.
# Briefly, Vero cells at a density of 10^4 cells per well were plated in 100 µL of complete DMEM and incubated overnight to allow cell attachment. Plates were then controlled under an inverted fluorescence microscope (Lumascope LS520) to ensure adherence, sterility and cell integrity. Thereafter, culture medium from each well was carefully emptied, and plates were filled with 90 µL of fresh complete medium followed by the addition of 10 µL of serial 5-fold dilutions of compound solutions. […] Fluorescence was then read using a Magelan Infinite M200 fluorescence multiwell plate reader (Tecan) with excitation and emission wavelengths of 530 and 590 nm, respectively. The percentage of cell viability was calculated from readouts, and the median cytotoxic concentration (CC50) for each compound was deduced from concentration–response curves using GraphPad Prism 8.0 software as described above. Selectivity indexes were then determined for each test substance as follows: SI = CC50(Vero cells)/IC50(T. brucei brucei).
row,SMILES,SI Vero Cells
1,"OC(c1cc(C(F)(F)F)nc2c(C(F)(F)F)cccc12)C1CCCCN1 (stereo not shown) [MMV000016, Mefloquine, reference compound]",6.89
2,"CCN(CC)CCCCCCNc1cc(OC)cc2c(C)ccnc12 [MMV000063, Sitamaquine, reference compound]",>66
3,"CC1CS(=O)(=O)CCN1/N=C/c1ccc([N+](=O)[O-])o1 (stereo not shown) [MMV001499, Nifurtimox, reference compound]",>539
4,"Cc1ccc(C(=O)Nc2ccc(S(=O)(=O)O)c3cc(S(=O)(=O)O)cc(S(=O)(=O)O)c23)cc1NC(=O)c1cccc(NC(=O)Nc2cccc(C(=O)Nc3cc(C(=O)Nc4ccc(S(=O)(=O)O)c5cc(S(=O)(=O)O)cc(S(=O)(=O)O)c45)ccc3C)c2)c1 [MMV637953, Suramine, reference compound]",>1128
5,"O=C(Cn1ccnc1[N+](=O)[O-])NCc1ccccc1 [MMV688773, Benznidazole, reference compound]",>302

# Same assay, conditions: Table 2; CC50 (Vero cells)/IC50 (T. b. brucei)
row,SMILES,SI
1,CNC(=O)C1Cc2ccccc2N1C(=O)Cc1ccc(F)cc1 (stereo not shown) [MMV188296],>98
2,O=C(Nc1ccc2c(c1)B(O)OC2)c1ccccc1C(F)(F)F [MMV652003],>1557.87
3,Cc1nc(-c2ccccn2)nc(N2CCC(Cc3ccccc3)C2)c1Cl (stereo not shown) [MMV659004],>50
4,COc1ccc(C(=N)N)cc1-c1cn(-c2ccc(C(=N)N)cc2)nn1 [MMV675998],>296
5,CO[C@@H](C(=O)N1Cc2[nH]nc(NC(=O)c3ccc(N4CCN(C)CC4)cc3)c2C1)c1ccccc1 [MMV676600],>154
6,Cc1ncc(-c2ccnc(Nc3ccc(S(C)(=O)=O)cc3)n2)n1C(C)C [MMV676604],232
7,c1ccc(Oc2ccc(-c3cc(N4CCNCC4)[nH]n3)cc2)cc1 [MMV687706],21
8,Cc1nn(C)c(C)c1NS(=O)(=O)c1c(Cl)cc(-c2ccnc(N3CCNCC3)c2)cc1Cl [MMV688180],">42,826"
9,N=C(N)Nc1ccc(-c2ccc(-c3ccc(N=C(N)N)c(Cl)c3)o2)cc1Cl [MMV688271],>93
10,NCCN(C(=O)c1ccc(Cl)cc1Cl)c1ccc(OCc2ccc(Cl)cc2)cc1 [MMV688371],5
11,CCCCN(CCCC)c1c(C#N)cc(S(=O)(=O)Nc2ccccc2)cc1C#N [MMV688467],>32
12,N=C(N)c1ccc(-c2cc(-c3ccccc3)on2)cc1 [MMV688514],5
13,Cc1cccnc1NC(=O)c1cccc(OCc2c(C)noc2C)c1 [MMV688793],>255
14,O=C(NCCc1ccn(-c2ccccc2)n1)C1CCCCC1 [MMV688795],>282
15,O=C(NCc1nnc2n1CCCCC2)c1ccc(-c2ccc(F)cc2)o1 [MMV688796],>3416
16,CC1CCCCN1C(=O)NCCc1coc(-c2ccc(F)cc2)n1 (stereo not shown) [MMV688797],>1598
17,COc1ccc(S(=O)(=O)Nc2ccc(CN3CCN(C(=O)c4cccc(C#N)c4)CC3)cc2)cc1 [MMV689029],>76
18,CC(=O)Nc1ccc(-c2noc(CC3CCCN(Cc4cccc(F)c4C)C3)n2)cc1 (stereo not shown) [MMV689061],>54
19,COc1ccc(C2=NN(C3CCCCCC3)C(=O)[C@@H]3CC=CC[C@H]23)cc1OCCCCOc1ccc(-c2nn[nH]n2)cc1 [MMV690027],>36

# Same assay, conditions: Table 3; CC50 (Vero cells)/IC50 (T. b. brucei)
row,SMILES,SI
1,CN(C)c1cc(NC(=O)Nc2ccccc2)c2ccccc2n1 [MMV006901],1.73
2,COc1cc(-c2cc(-c3ccc(S(C)(=O)=O)cc3)cnc2N)ccc1O [MMV010576],>66
3,COc1ccc(CCN2CCC(NCc3cccc(N(C)C)c3)CC2)cc1 [MMV011511],>11
4,CN1CCC(NCc2cccc(-c3ccc(S(=O)(=O)NCc4ccccc4)cc3)c2)CC1 [MMV022029],8
5,O=C(Nc1ccc(N2CCNCC2)cc1)c1ccn2ncc(-c3cccc(Cl)c3)c2n1 [MMV022478],6
6,Nc1nccc2ccc(-c3ccc4nccn4c3)cc12 [MMV023233],3
7,c1cncc(NCc2ccc(-c3cc4ccncc4cc3OC3CCNCC3)s2)c1 [MMV023969],3
8,O=C(Nc1ccccc1)c1ccc(-c2cc3ccncc3cc2OC2CCNCC2)s1 [MMV024035],19
9,O=C(Nc1ccc(N2CCNCC2)nc1)c1oc(-c2ccccc2)nc1C(F)(F)F [MMV024937],11
10,OCCc1ccc(Nc2nccc(-c3nnc4ccccn34)n2)cc1 [MMV028694],6
11,CC(=O)N1CCc2cc3nc(C)cc(C)c3cc21 [MMV054312],>77
12,O=C(C(Cc1c[nH]c2ccccc12)NS(=O)(=O)c1ccc(Cl)cc1)N1CCCCC1 (stereo not shown) [MMV085210],>107
13,CCOC(=O)c1c(NC(=O)c2c(F)c(F)c(F)c(F)c2F)sc(C(N)=O)c1C [MMV153413],>57
14,Brc1cncc(-c2cc(NCCCn3ccnc3)nc(-c3ccccc3)n2)c1 [MMV661713],>51
15,O=C(NCCN1CCCC1)c1cc(NCCCCN2CCC(F)(F)CC2)nc2ccc(Cl)cc12 [MMV667494],>75
16,NC(=O)c1cc(-c2ccsc2)ccc1OCCOc1ccccc1 [MMV687138],>199
17,Nc1nc2cc(-c3cncc(Oc4ccc(F)cc4)c3)ccc2[nH]1 [MMV687248],>199
18,Cn1c(=O)c2c(S(C)(=O)=O)snc2n(C)c1=O [MMV687251],3
19,COc1cccc(-c2nc3c(N4CCCC4)cccc3n2CC2CCCN2)n1 (stereo not shown) [MMV687703],>56
20,Cc1cnc(N2CCN[C@@H](Cc3ccccc3)C2)nc1Oc1ccc(-n2ccnc2)cc1 [MMV687765],>44
21,O=C(Nc1ccc(C(F)(F)F)c(C(F)(F)F)c1)c1cc(Cl)ccc1O [MMV687807],23
22,CN1CCN(CCCOc2ncc(Nc3ncc(-c4ccc(C(F)(F)F)c(F)c4)nc3C(N)=O)cn2)CC1 [MMV687812],1.5
23,CCc1ccc(S(=O)(=O)Nc2cc(CN3CCN(CCC(C)C)CC3)ccc2C)cc1 [MMV688124],>34
24,CC(C)n1nc(-c2cc3c(Cl)cccc3[nH]2)c2c(N)ncnc21 [MMV688417],3
25,CNc1nnc(Sc2cnn(-c3ccccc3)c(=O)c2Cl)s1 [MMV688763],10
26,CCOc1ccc2cc(-c3nn(CC4CCN(C)CC4)c4ncnc(N)c34)ccc2c1 [MMV688854],1.57

# Same assay, conditions: Table 3; CC50 (Vero cells)/IC50 (T. b. brucei); listed as MMV675968
row,SMILES,SI
1,"COc1ccc(OC)c(NCc2ccc3nc(N)nc(N)c3c2Cl)c1 [Analog 1, 2,4-diamino-5-chloro-6-[(2,5-dimethoxyanilino)methyl]quinazoline]",> 35 and >35.6

# Same assay, conditions: Table 4; CC50 (Vero cells)/IC50 (T. b. brucei)
row,SMILES,SI
1,COc1ccc(NCc2ccc3nc(N)nc(N)c3c2Cl)cc1OC [Analog 2],7.68
2,COc1ccccc1NCc1ccc2nc(N)nc(N)c2c1Cl [Analog 3],6.41
3,COc1ccc(NCc2ccc3nc(N)nc(N)c3c2Cl)cc1 [Analog 4],7.05
4,Cc1ccccc1NCc1ccc2nc(N)nc(N)c2c1Cl [Analog 5],> 43.47
5,COc1ccc(NCc2ccc3nc(N)nc(N)c3c2)cc1OC [Analog 6],>178.98
6,"COc1ccccc1NCc1ccc2nc(N)nc(N)c2c1 [Analog 7, 6-(((2-methoxyphenyl)amino)methyl)quinazoline-2,4-diamine]",412.75
7,COc1ccc(NCc2ccc3nc(N)nc(N)c3c2)cc1 [Analog 8],123.44
8,Cc1ccccc1NCc1ccc2nc(N)nc(N)c2c1 [Analog 9],115.97
9,"Nc1nc(N)c2cc(CNc3cc(Cl)ccc3Cl)ccc2n1 [Analog 10, 6-(((2,5-dichlorophenyl)amino)methyl)quinazoline-2,4-diamine]",~ 1737 and 1737.44
10,COc1ccc(NC(=O)c2ccc3nc(N)nc(N)c3c2)cc1 [Analog 11],5.60

# Same assay, conditions: Table 4; CC50 (Vero cells)/IC50 (T. b. brucei); listed as MMV1578445
row,SMILES,SI
1,"Nc1nc(N)c2cc(CNc3cc(Cl)ccc3Cl)ccc2n1 [Analog 10, 6-(((2,5-dichlorophenyl)amino)methyl)quinazoline-2,4-diamine]",1737

# Same assay, conditions: Table 4; CC50 (Vero cells)/IC50 (T. b. brucei); listed as MMV1578467
row,SMILES,SI
1,"COc1ccccc1NCc1ccc2nc(N)nc(N)c2c1 [Analog 7, 6-(((2-methoxyphenyl)amino)methyl)quinazoline-2,4-diamine]",412

# Tested on: bloodstream forms of Trypanosoma brucei brucei
# Test: resazurin-based antitrypanosomal inhibition assay
# Type: cell-based
# Settings: IC50 ratio
# Protocol: Parasites were axenically cultivated in sterile vented flasks containing complete Hirumi’s modified Iscove’s medium 9 (HMI-9) [500 mL IMDM (Iscove’s modified Dulbecco’s medium) (Gibco, Waltham, MA, USA) supplemented with 10% (v/v) heat-inactivated fetal bovine serum (HIFBS) (Sigma Aldrich), 10% (v/v) serum plus (Sigma Aldrich), HMI-9 supplement (1 mM hypoxanthine, 0.16 mM thymidine, 50 µM bathocuproine disulfonic acid, 1.5 mM cysteine, 1.25 Mm pyruvic acid, 0.2 mM 2-mercaptoethanol (Sigma Aldrich)), and 1% (v/v) penicillin–streptomycin (Sigma Aldrich) and incubated at 37 °C in a 5% CO2 atmosphere.
# The in vitro inhibitory potency of the 400 MMVPB compounds against bloodstream forms of Trypanosoma brucei brucei was evaluated using the resazurin-based inhibition assay as previously described. Briefly, parasites at their mid-logarithmic growth phase were counted, and the cell density was adjusted with fresh complete HMI-9 medium to 2 × 10^5 trypanosomes per mL. Then, 90 µL of parasite suspension was then distributed into the wells of 96-well flat-bottomed plates containing 10 µL of compounds for a final test concentration of 10 µM. […] Each assay plate was set up in duplicate and repeated two times. The percent parasite inhibition was determined for each compound based on fluorescence readouts relative to the mean fluorescence of negative control wells.
# y = 100/[1+ 10^(logIC50/99-x)H], where H is the hill coefficient or slope factor [60].
row,SMILES,fold more active than the parent hit 1
1,"COc1ccccc1NCc1ccc2nc(N)nc(N)c2c1 [Analog 7, 6-(((2-methoxyphenyl)amino)methyl)quinazoline-2,4-diamine]",~ 43 fold
2,"Nc1nc(N)c2cc(CNc3cc(Cl)ccc3Cl)ccc2n1 [Analog 10, 6-(((2,5-dichlorophenyl)amino)methyl)quinazoline-2,4-diamine]",~ 58 fold

# Same assay, conditions: congeners 3 and 2
row,SMILES,fold increase in antitrypanosomal potency with respect to corresponding chlorinated congener
1,COc1ccc(NCc2ccc3nc(N)nc(N)c3c2)cc1OC [Analog 6],4 fold
2,"COc1ccccc1NCc1ccc2nc(N)nc(N)c2c1 [Analog 7, 6-(((2-methoxyphenyl)amino)methyl)quinazoline-2,4-diamine]",53 fold and ~ 53 fold

# Where “and” joins values, the source holds several entries; their conditions need not be identical. Equal entries are not always repeated.
